Measurements: patent EP0392666A2, “Anti-HIV compositions” (JOHNSON MATTHEY PUBLIC LIMITED COMPANY, priority 1989, dated 1990)

Assays:
[1] = tested on: HIV-2 (LAV-2 ROD); assay: MTT method anti-HIV screen in MT-4 cells infected with HIV-2; format: cell-based; settings: Selectivity Index, ratio of CD₅₀ to ED₅₀, 7200 min
Procedure: The compounds of the invention were tested in a screen by the MTT method (J. Virol. Methods 120: 309-321 [1988]). MT-4 cells (2.5 x 10⁴ /well) were infected with HIV-1 (HTLV-IIIB) or HIV-2 (LAV-2 ROD) at a concentration of 100 CCID₅₀ and incubated in the presence of various concentrations of the test compounds, which were added immediately after infection with the virus. After 5 days culture at 37°C in a CO₂ incubator, the number of viable cells was assessed by the MTT (tetrazolium) method. […] The potential therapeutic usefulness was assessed by calculating a Selectivity Index (SI) corresponding to the ratio of CD₅₀ to ED₅₀. A control test was performed using the known anti-HIV treatment AZT.

[2] = tested on: HIV-1 (HTLV-IIIB); format: cell-based; settings: Selectivity Index, ratio of CD₅₀ to ED₅₀, 7200 min

Substance	SI [1]	SI [2]
Zn complex of 1,4,8,12-tetrazacyclopentadecane (Cl⁻) [G]	<1	28
Zn complex of 1,5,9,13-tetrazacyclohexaadecane (Cl⁻) [Compound H]	<1	4
